Results of unrelated studies side by side (data: NIAID ChemDB).

Common to all: enzyme or target tests

Percent inhibition refers to the dose given; in toxicity tests it is the harm to the cells. Fold resistance has wild type as its base. Two numbers with a dash give a range or band. ICn is the concentration giving n% inhibition. Rows are shuffled and stem from different studies. Blank or dashed fields: not listed here.

structure,target,strain or isolate,species,read by,measure,changes,tested at,value
O=c1[nH]cc(I)c(=O)[nH]1,Uracil phosphoribosyltransferase,RH,Toxoplasma gondii,,IC50,,,>2000 µM
Cc1cccc(COC(=O)Nc2ccsc2-c2nc(C(=O)O)c(O)c(=O)[nH]2)c1,HCV polymerase,,Hepatitis C virus,,IC50,,,<25 µM
O=C(/C=C/c1ccccc1Cl)Nc1nnc(NCCc2ccccc2)s1,Polymerase,,Human cytomegalovirus,,IC50,,,>25 µM
O=C(Nc1ccsc1-c1nc(C(=O)O)c(O)c(=O)[nH]1)OCCc1ccc(F)cc1O,HCV polymerase,,Hepatitis C virus,,IC50,,,<25 µM
Cc1ccc(N(C)C(=O)c2cc(-c3ccccc3)sc2C(=O)O)cc1,NS3 ATPase,,Hepatitis C virus,,IC50,,,5–20 µM
O=C(Nc1ccsc1-c1nc(C(=O)O)c(O)c(=O)[nH]1)OCC1c2ccccc2-c2ccccc21,HCV polymerase,,Hepatitis C virus,,IC50,,,<25 µM
CCCc1c[nH]c(=S)[nH]c1=O,Uracil phosphoribosyltransferase,RH,Toxoplasma gondii,,Ki,,,2100 µM
CN1C(=O)/C(=C\c2ccc(Cl)c(Cl)c2)SC1=S,NS5B polymerase,,Hepatitis C virus,,IC50,,,>30 µM
COc1cccc(COc2cccc(-c3nc(C(=O)O)c(O)c(=O)[nH]3)c2)c1,HCV polymerase,,Hepatitis C virus,,IC50,,,<100 µM
CCOCc1nc(N)nc(N)c1-c1ccc(Cl)c(Cl)c1,DHFR,RH,Toxoplasma gondii,,IC50,,,0.08 µM
O=C1c2ccccc2S(=O)(=O)c2cc(-c3nc(C(=O)O)c(O)c(=O)[nH]3)ccc21,HCV polymerase,,Hepatitis C virus,,IC50,,,<100 µM
COc1cc(C)c(S(=O)(=O)Nc2cc(-c3ccccc3)sc2C(=O)O)c(C)c1C,NS3 ATPase,,Hepatitis C virus,,IC50,,,<5 µM
O=C(Nc1nnc(NCCc2cccs2)s1)c1cc2ccccc2s1,Polymerase,,Human cytomegalovirus,,IC50,,,>25 µM
O=C(Nc1ccc(C(F)(F)F)cc1)Nc1cccc(-c2nc(C(=O)O)c(O)c(=O)[nH]2)c1,HCV polymerase,,Hepatitis C virus,,IC50,,,<100 µM
Cc1[nH]c(=O)[nH]c(=O)c1[N+](=O)[O-],Uracil phosphoribosyltransferase,RH,Toxoplasma gondii,,IC50,,,>2000 µM
Nc1nc2c(ncn2[C@H]2CC[C@@H](COP(=O)(O)OP(=O)(O)OP(=O)(O)O)O2)c(=O)[nH]1,Reverse transcriptase,,HIV,nucleotide incorporation / radiometric,fold resistance,RT-N137S,,7.8
Cc1ccc(/C=C2/SC(=S)N(NS(=O)(=O)c3ccccc3)C2=O)cc1C,NS5B polymerase,,Hepatitis C virus,,IC50,,,≤30 µM
O=C1CCCC(=O)N1,Uracil phosphoribosyltransferase,RH,Toxoplasma gondii,,IC50,,,>2000 µM
CCCCCCCC/C=C/CCCCCCCC(=O)Nc1nnc(NCCC#N)s1,Polymerase,,Human cytomegalovirus,,IC50,,,>25 µM
CC(C)=CCOc1cc(NC(=S)c2ccoc2C)ccc1Cl,Reverse transcriptase,,HIV,nucleotide incorporation / radiometric,IC50,RT-N137A,,0.03 µM
CC1(C)N=C(N)N=C(N)N1c1ccc(C(C#N)CCCc2ccccc2)cc1,DHFR,RH,Toxoplasma gondii,,IC50,,,0.031 µM
O=C1NC(=S)S/C1=C/c1ccc(-c2cccc(Cl)c2Cl)o1,NS5B polymerase,,Hepatitis C virus,,IC50,,,≤30 µM
O=C(Nc1nnc(NCCCCc2ccccc2)s1)c1ccc(F)cc1F,Polymerase,,Human cytomegalovirus,,IC50,,,>25 µM
CC(C)(C)OC(=O)NCc1cccc(COC(=O)Nc2ccsc2-c2nc(C(=O)O)c(O)c(=O)[nH]2)c1,HCV polymerase,,Hepatitis C virus,,IC50,,,<25 µM
O=c1[nH]cc(O)c(=O)[nH]1,Uracil phosphoribosyltransferase,RH,Toxoplasma gondii,,IC50,,,>2000 µM
Cc1cn([C@@H]2O[C@H](CO[Si](C)(C)C(C)(C)C)[C@@]3(OS(=O)(=O)C=C3N)[C@H]2O[Si](C)(C)C(C)(C)C)c(=O)[nH]c1=O,Reverse transcriptase,,HIV,nucleotide incorporation / radiometric,IC50,RT-N137A,,1.8 µM
C=Cc1cc(C)ccc1C(=O)N(c1cc(-c2ccccc2)sc1C(=O)O)C(C)C,NS3 ATPase,,Hepatitis C virus,,IC50,,,5–20 µM
O=C(Nc1cccc(-c2nc(C(=O)O)c(O)c(=O)[nH]2)c1)Nc1ccccc1-c1ccccc1,HCV polymerase,,Hepatitis C virus,,IC50,,,<100 µM
CC(C)CN(Cc1ccc(C(F)(F)F)cc1)c1cc(-c2ccccc2)sc1C(=O)O,NS3 ATPase,,Hepatitis C virus,,IC50,,,5–20 µM
Cc1ccc(C)c(S(=O)(=O)NN2C(=O)/C(=C\c3ccc(Cl)c(Cl)c3)SC2=S)c1,NS5B polymerase,,Hepatitis C virus,,IC50,,,≤30 µM
Cc1c(S(=O)(=O)Nc2cc(-c3ccccc3)sc2C(=O)O)sc2ccc(Cl)cc12,NS3 ATPase,,Hepatitis C virus,,IC50,,,<5 µM
Cc1cc2c(cc1C)-c1c(N)nc(N)nc1CC2,DHFR,RH,Toxoplasma gondii,,IC50,,,0.038 µM
O=c1ccnc[nH]1,Uracil phosphoribosyltransferase,RH,Toxoplasma gondii,,inhibition,,2000 µM,<10%
CO[P@](=O)(c1cc(C)cc(/C=C/C#N)c1)c1c(C(N)=O)[nH]c2ccc(Cl)c(F)c12,Reverse transcriptase,,HIV,,IC50,L1001/K103N,,0.43 µM
NC(C(=O)Nc1ccsc1-c1nc(C(=O)O)c(O)c(=O)[nH]1)c1cccc2ccccc12,HCV polymerase,,Hepatitis C virus,,IC50,,,<25 µM
O=C1NC(=O)C(Cc2ccc(OCc3ccccc3)cc2)C(=O)N1,Uracil phosphoribosyltransferase,RH,Toxoplasma gondii,,IC50,,,>2000 µM
O=C(Nc1cc(-c2ccccc2)sc1C(=O)O)c1ccccc1Br,NS3 ATPase,,Hepatitis C virus,,IC50,,,<5 µM
CC1(C)N=C(N)N=C(N)N1c1cccc(OCCCOc2ccc(NC(=O)/C=C/C(=O)O)cc2)c1,DHFR,RH,Toxoplasma gondii,,IC50,,,0.0042 µM
Cc1ccccc1S(=O)(=O)Nc1cc(-c2ccccc2F)sc1C(=O)O,NS3 ATPase,,Hepatitis C virus,,IC50,,,<5 µM
O=C1/C(=C/c2ccc(Br)c(Br)c2)SC(=S)N1NS(=O)(=O)c1ccc(Br)cc1,NS5B polymerase,,Hepatitis C virus,,IC50,,,≤30 µM

Repeating the first 4 entries:

structure,target,strain or isolate,species,read by,measure,changes,tested at,value
O=c1[nH]cc(I)c(=O)[nH]1,Uracil phosphoribosyltransferase,RH,Toxoplasma gondii,,IC50,,,>2000 µM
Cc1cccc(COC(=O)Nc2ccsc2-c2nc(C(=O)O)c(O)c(=O)[nH]2)c1,HCV polymerase,,Hepatitis C virus,,IC50,,,<25 µM
O=C(/C=C/c1ccccc1Cl)Nc1nnc(NCCc2ccccc2)s1,Polymerase,,Human cytomegalovirus,,IC50,,,>25 µM
O=C(Nc1ccsc1-c1nc(C(=O)O)c(O)c(=O)[nH]1)OCCc1ccc(F)cc1O,HCV polymerase,,Hepatitis C virus,,IC50,,,<25 µM